The source of these data is patent US20130289246A1 (VANDERBILT UNIVERSITY, published 2013).

Assay [1] addresses recombinant soluble trimeric 1918 H1 HA (A/South Carolina/1/1918, wild type) (Influenza A virus A/South …, UniProt Q9WFX3 18-529). Description: ELISA, supernate. (In general: ELISA stands for enzyme-linked immunosorbent assay.)
Assay [2] has as its target recombinant soluble 1957 H2 HA (A/Japan/305+/1957) (Influenza A virus A/Japan/305+/1957 …). Description: ELISA, supernate.
For assay [3], the target named is soluble 1999 H1 HA (seasonal 1999 H1N1) (Influenza A virus (H1N1, 1999)). Description: ELISA, supernate.
In a further assay the target is soluble 2004 H5 HA (Influenza A virus (H5N1, 2004)). In words: ELISA, supernate.
Assay [4] addresses T1, recombinant soluble trimeric 2009 H1 HA (A/California/04/2009, wild type) (Influenza A virus A/California/04/2009 …).
T1 construct: extracellular domain
Description: ELISA, supernate.

Assay [5] concerns the target HA of A/Singapore/1/1957 (H2N2), on VLP (Influenza A virus (H2N2)). In words: cell-based or functional assay.
Assay [6] addresses HA of A/Japan/305+/1957 (H2N2), wild type, on VLP (Influenza A virus A/Japan/305+/1957 …). In words: cell-based or functional assay.

B1: mAb 6J24 (antibody, V domains shown)
VH: EVQLVESGGGLVQPGRSLRLSCVGSGFNFDGYAMQWVRQVPGKGLEWVSGISWHSDSTGYADSVRGRFTISRDNAKNSLYLQMDSLRPEDTAFYYCGKSIGHVGGSYRHPIDYWGQGTLVTVS
VL: DIQLTQSPSSLSASVGDRVTITCRASQGITDYLAWYQQKPGTIPKLLIYAASTLQSGVPSRFSGGGYGTDFTLTISSLQPEDVATYYCQKYNSAPLTFGGGTKVEIKR
Consider B1, for which the OD in assay [1] came to 0.083 OD.

B2: mAb 8F8 (antibody, V domains shown)
VH: EVQLLESGGGVVQPGRSLRLSCAASGFMFSSYVMHWVRQPPGKGLEWVAVIWYDGSKTYFADSMRGRLTVSRDNSKNALYLQMNRLRAEDTAVYYCARQQDSGYSGPEVSYYSHYGMDVWGQGTTVIVS
VL: QSVLTQSPSASGTPGRAITISCSGSSSNIGSNPVNWYQQLPGAAPKLLIYADEHRPSGVPDRFSGPKSGTSASLAISGLQSEDEADYYCAAWDDSLSGPAVVFGGGTKLTVLG
For B2, the OD came to 1.02 OD in assay [2], 0.081 OD in assay [3], 0.074 OD with soluble 2004 H5 HA and 0.081 OD in assay [4]. The values for the HAI activity in assay [5] and in assay [6] were 0.05 µg/mL and less than 0.2 µg/mL, respectively.

B3: mAb 11J19 (antibody, V domains shown)
VH: EVQLQESGPGLVKPSETLSLSCTVSGGSITRSSYYWGWIRQPPGKGLEWIGNIYYSGTTYYNPSLKSRVTISVDTSKNQFSLKLSSVTAADTAVYYCARLYGSGLDYWGQGTLVTVS
VL: DIQLTQSPSFLSASVGDRVTITCRASQGSSRYVAWYQQKPGKAPKLLILAASTLHTGVPSRFSGSGSGTEFTLTISSLQPEDFATYSCQQLNGFLLTFGGGTKVEIKR
In turn, B3 displayed an HAI activity in assay [5] greater than 20 µg/mL.

B4: mAb 2G1 (antibody, V domains shown)
VH: EVQLVESGAEVKKPGSSVKVSCKASGGTFITHVFTWVRQAPGQGLEWVGGFIAIFGTSNYAQKFQGRVTITADESTSTAYMELTSLTSEDTAVYYCARGISGSYGWFDPWGQGTLVTVS
VL: DIQLTQSPSSLSASVGDRVTITCQASQDIRKYLNWYQQKPGKAPNLLIYDASNVKTGVPSRFRGSGSGTDFTFTISSLQPEDIATYYCQQYDNLPITFGQGTRLEIKR
On to B4, for which the HAI activity in assay [6] was less than 0.2 µg/mL.

B5: mAb 7A13 (antibody, V domains shown)
VH: QVQLQESAPGLVKPSGTLSLTCAVSGASLSSSDWWTWVRQPPGKGLEWIGEIHHGGSTNSNPSLQSRVTISIDKSKKQFSLKLTSVTVADTAVYYCARAPGADAGPYSENIHHWGQGTLVTVS
VL: QLVLTQSPSASASLGASVKLTCTLSSRHSDYAIGWHQQQPGKGPRYLMKLNPDGSHTKGDGIPDRFSGSSSGAERYLTISNLLSEDEADYYCQTWGTGIQVFGGGTRLTVIS
On to B5, for which the HAI activity in assay [5] is greater than 20 µg/mL.
